Data as given in PubChem BioAssay AID1259414 (Drosophila RNAi Screening Center, 2018)
Purpose: 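Host factors increasing or decreasing Wolbachia levels in cultured fly cells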 (primary screen). Cell system: Drosophila JW18 cells infected with Wolbachia. Reagent: long dsRNA against Drosophila genes, 0.25 µg dsRNA per well of a 384-well plate. Timing: 5 days. Challenge: cells persistently infected with Wolbachia before knock-down; no added drug. Measured: 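Automated imaging of bacterial rRNA staining divided by host cell count, reported as plate-normalised robust z-score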. Direction: Wolbachia per cell robust z: higher = more Wolbachia per host cell than the plate typical. Active means: 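Active if absolute robust z reaches 1.5 in two or more of three replicates, leaving out multi- or no-target dsRNAs, genes unexpressed in JW18 and A1 wells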.
The deposit covers about 24,000 reagents; this is a random part of those with a known target gene and a result. Of all reagents, about 1,210 (5%) are marked active. 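Inactive calls also include excluded dsRNAs with several or no targets, genes unexpressed in JW18, and well A1, regardless of score.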 Unmarked entries are inactive. A plus sign joins genes that one reagent is predicted to hit. No sequences are given here.

| target gene | dsRNA | Wolbachia per cell robust z, rep 1 | Wolbachia per cell robust z, rep 2 | Wolbachia per cell robust z, rep 3 |
| --- | --- | --- | --- | --- |
| MYPT-75D | DRSC10743 | -0.0596 | -1.09 | 0.662 |
| CG14710 | DRSC14933 | 0.639 | 0.268 | 0.168 |
| Apl | DRSC10350 | 1.27 | 0.495 | -0.431 |
| CG34434 | DRSC18134 | 1.38 | 0.571 | -0.527 |
| CG34434 | DRSC26923 | -2.21 (active) | -1.97 | 0.38 |
| CG34434 | DRSC28486 | 0.442 | -0.036 | 0.0264 |
| MtnA | DRSC21588 | -1.54 | -1.13 | -0.892 |
| CG17982 | DRSC18143 | 0.836 | 1.5 | 1.43 |
| Nnp-1 | DRSC02165 | 1.23 | 0.111 | 0.45 |
| Nnp-1 | DRSC29816 | -0.211 | 1.22 | 1.38 |
| TTLL4B | DRSC00636 | -0.742 | -0.156 | 0.675 |
| TTLL4B | DRSC28854 | 0.409 | 0.0812 | -0.183 |
| CG32706 + CG6999 | DRSC18412 | -1.48 | -7.24 | -0.826 |
| CG32706 + CG6999 | DRSC23954 | 1.09 | -0.919 | 0.0854 |
| TyrRS-m | DRSC04286 | 0.783 | -1.61 | -0.684 |
| Lint-O | DRSC18468 | -0.969 | 1.66 | 0.822 |
| Lint-O | DRSC23789 | 2.33 | 0.262 | 0.772 |
| crol | DRSC03514 | 0.618 | 0.835 | -0.546 |
| crol | DRSC21348 | 0.46 | -1.23 | 0.367 |
| crol | DRSC26800 | -7.94 (active) | 0.721 | -1.81 |
| CG3335 | DRSC10358 | -0.162 | 0.817 | 0.844 |
| CG3335 | DRSC29982 | 1.13 | -0.193 | 0.0159 |
| CG42583 | DRSC22937 | 0.481 | 0.541 | 0.422 |
| CG42583 | DRSC26327 | -0.157 | 0.968 | -0.969 |
| CG8093 | DRSC07078 | -3.12 | -2.25 | -2.44 |
| asf1 | DRSC11324 | 0.877 | -1.21 | 2.29 |
| asf1 | DRSC24067 | 1.58 | -0.496 | -1.72 |
| BaraA1 + BaraA2 | DRSC05417 | 0.971 | -0.892 | 0.147 |
| CG8388 | DRSC07157 | 0.756 | 0.23 | -0.513 |
| Sirt4 | DRSC18290 | -0.217 | 0.495 | -0.614 |
| Sirt4 | DRSC27472 | -4.06 | 1.24 | -1.16 |
| CG5107 | DRSC15716 | 0.476 | 0.0907 | 0.669 |
| Or67d | DRSC10158 | -0.31 | 0.313 | -0.208 |
| Fife | DRSC08409 | 1.07 | -0.143 | -0.951 |
| Fife | DRSC08499 | 0.743 | 0.188 | -0.557 |
| Fife | DRSC23483 | 1.18 | 0.656 | 0.431 |
| Fife | DRSC25709 | -0.56 | -0.539 | 0.532 |
| Eh | DRSC16660 | 0.261 | 1.11 | 0.76 |
| CstF50 | DRSC15434 | -1.19 | -0.0137 | -3.14 |
| CG15742 | DRSC19708 | -0.0643 | 0.0551 | 0.743 |
| CG15742 | DRSC28195 | 0.0982 | 0.682 | 0.497 |
| Poc1 | DRSC09713 | -0.000704 | -0.684 | -0.274 |
| Poc1 | DRSC28330 | 0.272 | 0.0991 | 0.512 |
| lds | DRSC16988 | -0.131 | -1.42 | -0.099 |
| ND-B14.5AL | DRSC11795 | 0.877 | 1.16 | 0.954 |
| ND-B14.5AL | DRSC28992 | 0.476 | -0.0519 | -0.959 |
| CG3548 | DRSC04387 | 0.678 | -0.37 | -0.596 |
| CG3548 | DRSC29938 | -0.911 | -1.12 | -0.337 |
| CG13436 | DRSC06396 | -0.412 | 0.703 | 0.94 |
| frtz | DRSC00512 | 1.69 | -1.52 | -1.18 |
| CG12698 | DRSC19485 | 0.0965 | 1.45 | 0.786 |
| CG12698 | DRSC27291 | 0.593 | -0.693 | -0.256 |
| CG4045 | DRSC18518 | -0.388 | 0.72 | -0.679 |
| CG34404 | DRSC15335 | -1.35 (active) | -1.67 | -2.03 |
| CG34404 | DRSC15978 | -0.259 | -0.0444 | 0.285 |
| CG34404 | DRSC25463 | -0.707 | 1.13 | -0.18 |
| Ssl | DRSC04657 | 0.187 | 0.144 | 1.1 |
| Ssl | DRSC26276 | 0.849 | 0.452 | 0.0373 |
| Ssl | DRSC41399 | -2.29 | -0.535 | 0.852 |
| CG32241 | DRSC08100 | -10.1 | -1.42 | -0.16 |
| CG32241 | DRSC21518 | 0.953 | 0.753 | 0.851 |
| CG32241 | DRSC25178 | 0.99 | 0.697 | 1.45 |
| CG32241 | DRSC41291 | 1.36 | 1.02 | 0.0215 |
| Ada3 | DRSC20321 | 0.601 | 1.46 | -4.46 |
| Ada3 | DRSC20322 | 0.929 | 1.35 | -0.441 |
| CR10102 | DRSC05963 | -0.276 | 0.411 | -1.91 |
| DNAlig3 | DRSC15201 | 1.03 | -3.17 | -0.24 |
| DNAlig3 | DRSC29603 | 1.08 | -0.142 | -5.36 |

11 entries from above, reformatted.
crol [DRSC21348]
- Wolbachia per cell robust z, rep 1: 0.46
- Wolbachia per cell robust z, rep 2: -1.23
- Wolbachia per cell robust z, rep 3: 0.367

crol [DRSC26800]
- Wolbachia per cell robust z, rep 1: -7.94 (active)
- Wolbachia per cell robust z, rep 2: 0.721
- Wolbachia per cell robust z, rep 3: -1.81

CG3335 [DRSC10358]
- Wolbachia per cell robust z, rep 1: -0.162
- Wolbachia per cell robust z, rep 2: 0.817
- Wolbachia per cell robust z, rep 3: 0.844

CG3335 [DRSC29982]
- Wolbachia per cell robust z, rep 1: 1.13
- Wolbachia per cell robust z, rep 2: -0.193
- Wolbachia per cell robust z, rep 3: 0.0159

CG42583 [DRSC22937]
- Wolbachia per cell robust z, rep 1: 0.481
- Wolbachia per cell robust z, rep 2: 0.541
- Wolbachia per cell robust z, rep 3: 0.422

CG42583 [DRSC26327]
- Wolbachia per cell robust z, rep 1: -0.157
- Wolbachia per cell robust z, rep 2: 0.968
- Wolbachia per cell robust z, rep 3: -0.969

CG8093 [DRSC07078]
- Wolbachia per cell robust z, rep 1: -3.12
- Wolbachia per cell robust z, rep 2: -2.25
- Wolbachia per cell robust z, rep 3: -2.44

asf1 [DRSC11324]
- Wolbachia per cell robust z, rep 1: 0.877
- Wolbachia per cell robust z, rep 2: -1.21
- Wolbachia per cell robust z, rep 3: 2.29

asf1 [DRSC24067]
- Wolbachia per cell robust z, rep 1: 1.58
- Wolbachia per cell robust z, rep 2: -0.496
- Wolbachia per cell robust z, rep 3: -1.72

BaraA1 + BaraA2 [DRSC05417]
- Wolbachia per cell robust z, rep 1: 0.971
- Wolbachia per cell robust z, rep 2: -0.892
- Wolbachia per cell robust z, rep 3: 0.147

CG8388 [DRSC07157]
- Wolbachia per cell robust z, rep 1: 0.756
- Wolbachia per cell robust z, rep 2: 0.23
- Wolbachia per cell robust z, rep 3: -0.513
